In patent US8058410B2, “Affinity ligands” (dated 2011):

Target: Npro mutants with the EDDIE motif in amino acid residues 53 to 57 (Classical swine fever virus, UniProt P21530, A109T/C112E/C134E/C138E/D160N/D35N/E148T/F89Y/G54D/I135V/I155T/K57E/K61R/L143Q/L158T/M18V/M94T/N13S/N55D/N62D/R53E/R66K/T28A/V114T/V27T/V83I)

Substance | affinity to Npro mutants with the EDDIE motif in amino acid residues 53 to 57
AFYRWY | specifically high affinity
VSRNWY | specifically high affinity
